Anti-infective test results gathered from many reports (values: NIAID ChemDB through PubChem).

All rows: whole-cell or culture tests

MIC50, MIC90 and the like: level of inhibition, or share of isolates inhibited. ECn: concentration that inhibits the pathogen or its effect by n%. Inhibition is in % at the dose shown (toxicity tests: loss of growth or viability). Rows are shuffled and stem from different studies. Zone: diameter of growth inhibition. An empty or dashed field is not shown.

| structure | species | strain or isolate | mutations | cells | read by | measure | dose | result |
|---|---|---|---|---|---|---|---|---|
| CC[C@@H](C(C)C)[C@@H](O)[C@H](O)[C@@H](C)[C@H]1CC[C@H]2[C@@H]3CC(=O)[C@H]4C[C@H](O)[C@H](O)C[C@]4(C)[C@H]3CC[C@]12C | Pichinde virus | AN3739 | - | VERO | plaque count | EC50 | - | 3.9 µM |
| COc1c(CN(C)C)cccc1C1OC(c2ccncc2)=NN1C(C)=Nc1cccc(F)c1 | Pseudomonas aeruginosa | MTCC 2453 | - | - | - | MIC | - | 12.5 µg/mL |
| CC(C)N=C(N)/N=C(\N)NOCCCOc1cc(Cl)c(Cl)cc1Cl | Mycobacterium avium complex | CFR | - | - | - | MIC | - | 32 µg/mL |
| O=C1Nc2ccc(Cl)cc2[C@@](C#CC2CC2)(C(F)(F)F)N1 | HIV-1 | - | RT-Y181C | - | - | EC90 | - | <0.012 µM |
| CCOC(=O)c1ccc(N=Nc2c(C)[nH]n(C(=O)c3sc4ccc(Cl)cc4c3Cl)c2=O)cc1 | Pseudomonas aeruginosa | ATCC 27853 | - | - | agar diffusion / agar | zone | 40 µg/mL | 15 mm |
| Nc1nc2c(ncn2COC(CO)CO)c(=O)[nH]1 | Rhesus cytomegalovirus | 68-1 | - | MRC-5 | plaque count | EC50 | - | 8 µM |
| CCC(CC)[C@H](NC(C)=O)[C@@H]1[C@H](O)[C@@H](C(=O)O)C[C@H]1N=C(N)N | Influenza A virus | Influenza A/Washington/897/80 (H3N2) | - | MDCK | - | EC50 | - | <0.01 µM |
| Nc1nc2c(ncn2COC2CCP(=O)([O-])OC2)c(=O)[nH]1 | Guinea pig cytomegalovirus | 22122 | - | GPE | cytopathic effect | EC50 | - | 8 µg/mL |
| CC(=O)ONc1ccc(S(=O)(=O)N(CC(C)C)C[C@@H](O)[C@H](Cc2ccccc2)NC(=O)CCCN2C(=O)c3ccccc3C2=O)cc1 | SIV | - | - | CEM | MTT | EC50 | - | 5.6 µM |
| Nc1ccn([C@@H]2CS[C@H](CO)O2)c(=O)n1 | Duck hepatitis B virus | - | - | Primary duck hepatocytes | - | EC50 | - | 0.5 µM |
| CC(C)CC(N)C(=O)Nc1ccc(Cn2cnc3c(N(C)C)ncnc32)cc1 | Coronavirus | - | - | M-HELA | plaque count | EC50 | - | >50 µM |
| CCCCCCCCCCSC[N+](C)(C)CCCCCCCC | Staphylococcus aureus | ATCC 6538 | - | - | - | MBC | - | 26.3 µM |
| CC(=O)N[C@H]1[C@H]([C@H](O)[C@H](O)CO)OC(C(=O)O)=C[C@@H]1N=C(N)N | Influenza A virus | Influenza A/Sydney/05/97 (H3N2) | - | MDCK | - | EC50 | - | 0.45 µM |
| CCc1nc(N)nc(N)c1-c1ccc(Cl)cc1 | Mycobacterium avium complex | 3404-4 | - | - | - | MIC | - | 32 µg/mL |
| CCCCCCCCCCCC[N+](C)(C)CSCCCC | Staphylococcus aureus | ATCC33592 | - | - | - | MIC | - | 14.2 µM |
| CC(=O)ONc1ccc(S(=O)(=O)N(Cc2ccccc2)C[C@@H](O)[C@H](Cc2ccccc2)NC(=O)[C@H](C(C)C)N2C(=O)c3ccccc3C2=O)cc1 | SIV | - | - | CEM | MTT | EC50 | - | 8 µM |
| CC1C(c2ccccc2)OC(c2ccccc2)CC12NC(=S)NN2c1ccccc1 | Rhizopus spp. | - | - | - | - | MIC | - | 25 µg/mL |
| CCCCCCCC[N+](C)(C)COCC(CC)CCCC | Staphylococcus aureus | ATCC33592 | - | - | - | MIC | - | 7.4 µM |
| COC(=O)N[C@H](C(=O)N1CCCC1c1ncc(-c2ccc(-c3ccc(-c4cnc([C@@H]5CC(C)CN5C(=O)[C@@H](NC(=O)CO)C(C)C)[nH]4)cc3)cc2)[nH]1)C(C)C | Hepatitis C virus | 1b | L31F | ET | luciferase | EC50 | - | 0.000012 µM |
| CCCCCCCCCCCC[N+](C)(C)COCC(CC)CC | Staphylococcus aureus | ATCC 6538 | - | - | - | MBC | - | 13.7 µM |
| Cc1cccc(N=Nc2c(C)[nH]n(C(=O)c3sc4ccc(Cl)cc4c3Cl)c2=O)c1C | Pseudomonas aeruginosa | ATCC 27853 | - | - | agar diffusion / agar | zone | 40 µg/mL | 16 mm |
| CC(C)CN(C[C@@H](O)[C@H](Cc1ccccc1)NC(=O)CCCN1C(=O)c2ccccc2C1=O)S(=O)(=O)c1ccc(Br)cc1 | SIV | - | - | CEM | MTT | EC50 | - | 8.2 µM |
| CC(=O)N1N=C(c2sc3ccc(Cl)cc3c2Cl)OC1c1cc2cc(C)ccc2nc1Cl | Pseudomonas aeruginosa | ATCC 27853 | - | - | agar diffusion / agar | zone | 40 µg/mL | 18 mm |
| CN(C)c1cc(NC(=O)CNC(C)(C)C)c(O)c2c1C[C@H]1C[C@H]3[C@H](N(C)C)C(=O)C(C(N)=O)=C(O)[C@@]3(O)C(=O)C1=C2O | Enterococcus faecium | 40 strains (vancomycin-resistant) | - | - | - | MIC90 | - | 0.12 µg/mL |
| N=C(N)c1ccc(CNCCCCCNCc2ccc(C(=N)N)cc2)cc1 | Encephalitozoon cuniculi | - | - | - | - | EC50 | - | 148 µM |
| CCO/N=C/c1ccc(OCCC2CCN(c3ccc(Cl)nn3)CC2)cc1 | Rhinovirus | 209 (ICAM-1 receptor group 39) | - | KB | neutral red | EC50 | - | 0.003 µM |
| Nc1ncnc2c1ncn2Cc1cccc(NC(=O)C(Cc2ccccc2)NC(=O)OCc2ccccc2)c1 | Coronavirus | - | - | M-HELA | plaque count | EC50 | - | >50 µM |
| CCC(=O)C(CC/C=C/CCc1ccc(C)cc1)C(=O)CC | Equine herpesvirus 4 | - | - | - | - | MIC | - | >50 µg/mL |
| Cc1[nH]n(C(=O)c2sc3ccc(Cl)cc3c2Cl)c(=O)c1N=Nc1ccccc1[N+](=O)[O-] | Pseudomonas aeruginosa | ATCC 27853 | - | - | agar diffusion / agar | zone | 40 µg/mL | 11 mm |
| CCCCCCCCCCCC[N+](C)(C)COCCC(C)CCCC(C)C | Staphylococcus aureus | ATCC 6538 | - | - | - | MBC | - | 23.8 µM |
| CCNC/C=C\CNC/C=C\CNCCCCNCCCCNCC | Encephalitozoon cuniculi | - | - | - | - | EC50 | - | >1000 µM |
| C=CCc1ccc(O)c(OC)c1 | Candida albicans | 2889 | - | - | turbidity | MIC90 | - | 475 µg/mL |
| O=C1Nc2ccc(Cl)cc2[C@@](/C=C/C2CC2)(C(F)(F)F)N1 | HIV-1 | - | RT-K101E | - | - | EC90 | - | <0.012 µM |
| CCCCCCCCCCCC[N+](C)(C)COCCCCCCC | Staphylococcus aureus | ATCC33592 | - | - | - | MBC | - | 2.64 µM |
| CCNC/C=C\CNCCCCNCCCCNC/C=C\CNCC | Encephalitozoon cuniculi | - | - | - | - | EC50 | - | >1000 µM |
| CCCCCCCCCOC[N+](C)(C)CCCCCCCC | Staphylococcus aureus | ATCC33592 | - | - | - | MBC | - | 143 µM |
| CCOC(=O)C(C#N)CC/C(=C/CCc1ccc2c(c1)OCO2)CC | Equine herpesvirus 4 | - | - | - | - | MIC | - | >50 µg/mL |
| CC1C(c2ccccc2)OC(c2ccccc2)CC12NNC(=S)N2 | Rhizopus spp. | - | - | - | - | MIC | - | 25 µg/mL |
| CCC(CC)[C@H](NC(C)=O)[C@@H]1[C@H](O)[C@@H](C(=O)O)C[C@H]1N=C(N)N | Influenza A virus | H3N2 A/X-31 | - | MDCK | - | EC50 | - | 0.01 µM |
| Nc1nc2c(ncn2COC(CO)CCP(=O)([O-])O)c(=O)[nH]1 | Guinea pig cytomegalovirus | 22122 | - | GPE | cytopathic effect | EC50 | - | 20 µg/mL |
| CCCCCCCCCCCC[N+](C)(C)COCCCCCCCCC | Staphylococcus aureus | ATCC33592 | - | - | - | MBC | - | 14.8 µM |
| CCC(=O)C(CCCCCCc1ccc(O)cc1)C(=O)CC | Equine herpesvirus 4 | - | - | - | virus yield | EC50 | - | <100 µg/mL |
| CN(C)c1ncnc2c1ncn2Cc1cccc(NC(=O)C(Cc2ccccc2)NC(=O)OCc2ccccc2)c1 | Coronavirus | - | - | M-HELA | plaque count | EC50 | - | >50 µM |
| CCNCCCCNCCCCNCCCCNCCCCNCCCCNCCCCNCCCCNCCCCNCCCCNCCCCNCCCCNCCCCNCCCCNCC | Encephalitozoon cuniculi | - | - | - | - | EC50 | - | 0.54 µM |
| CC(=O)ONc1ccc(S(=O)(=O)N(CC(C)C)C[C@@H](O)[C@H](Cc2ccccc2)NC(=O)CCc2c[nH]c3ccccc23)cc1 | SIV | - | - | CEM | MTT | EC50 | - | 8.4 µM |
| CCC1C(c2ccccc2)OC(c2ccccc2)CC12NC(=S)NN2c1ccccc1 | Rhizopus spp. | - | - | - | - | MIC | - | 12.5 µg/mL |
| Cc1ccc(N=Nc2c(C)[nH]n(C(=O)c3sc4ccc(Cl)cc4c3Cl)c2=O)c(C)c1 | Pseudomonas aeruginosa | ATCC 27853 | - | - | agar diffusion / agar | zone | 40 µg/mL | 10 mm |
| Nc1ncnc2c1ncn2Cc1ccc(NC(=O)C(N)Cc2ccccc2)cc1 | Coronavirus | - | - | M-HELA | plaque count | EC50 | - | >50 µM |
| CCC(C)n1ncn(-c2ccc(N3CCN(c4ccc(OC[C@H]5CO[C@](Cn6cncn6)(c6ccc(Cl)cc6Cl)O5)cc4)CC3)cc2)c1=O | Aspergillus fumigatus | AF293 | - | - | broth dilution | inhibition | 16 µg/mL | 99.39% |
| COc1c(CN(C)C)cccc1C1OC(c2ccncc2)=NN1C(C)=Nc1ccccc1F | Pseudomonas aeruginosa | MTCC 2453 | - | - | - | MIC | - | 25 µg/mL |
| NCC(=O)Nc1ccc(Cn2cnc3c(N)ncnc32)cc1 | Coronavirus | - | - | M-HELA | plaque count | EC50 | - | >50 µM |
| Cn1cc(C(=O)NCc2ccc(Cl)cc2)c(=O)c2cc(CN3CCOCC3)ccc21 | Varicella zoster virus | SM varicella isolate | - | HFF | plaque count | EC50 | - | 0.4 µM |
| CCC(=O)C(CC/C=C/CCc1ccc(S(N)(=O)=O)cc1)C(=O)CC | Equine herpesvirus 4 | - | - | - | - | MIC | - | >50 µg/mL |